In PMC6345968, “Structural basis for species-selective targeting of Hsp90 in a pathogenic fungus” (Nature Communications, 2019):

Experiments:
Test in all cases: Broth microdilution growth inhibition, Hsp90 variant yeast
Assay type in all cases: cell-based, Saccharomyces cerevisiae
[1] = tested on: S. cerevisiae expressing C. albicans Hsp90 Leu130Ala/Phe131Tyr
Excerpt: (§1) We tested their importance by generating three C. albicans Hsp90 variants with the native fungal residues changed to their corresponding human residues (Fig. 5a, b). The first variant was a single substitution, replacing fungal threonine with human glutamine at position 12 (Thr12Gln) located between the N-terminal β-strand and α-helix. […] The second variant involved two amino acid changes within α-helix 7 (Leu130Ala and Phe131Tyr) which were predicted to impact contact with the para-methoxybenzyl substituent.
(§2) Antifungal tolerance and resistance were determined in flat bottom, 96-well microtiter plates using a modified broth microdilution protocol as described[8],[10]. All Hsp90 inhibitors were formulated in dimethyl sulfoxide (DMSO, Sigma Aldrich Co.); fluconazole was dissolved in sterile ddH2O. Each strain was tested in duplicate on at least two occasions. […] To test for fungicidal activity, cultures from MIC plates were spotted on YPD agar plates using a spotter (Frogger, V&P Scientific, Inc). Plates were photographed after 48 h of incubations at 30 °C.

[2] = tested on: S. cerevisiae expressing C. albicans Hsp90 Thr12Gln
Excerpt: as §1, §2

[3] = tested on: S. cerevisiae expressing C. albicans Hsp90 Lys158Ser/Thr162Arg
Excerpt: as §1, §2

In the case of `C[C@@H]1C[C@H]2O[C@@H]2/C=C\C=C\C(=O)Cc2c(Cl)c(O)cc(O)c2C(=O)O1` [radicicol, reference compound], the “change of potency relative to wild-type C. albicans Hsp90” value [1] was “increased potency”, the “change of potency relative to wild-type C. albicans Hsp90” value [2] was “did not alter the potency” and the “change of potency relative to wild-type C. albicans Hsp90” value [3] was “did not alter the potency”.
